Results of unrelated studies side by side (data: NIAID ChemDB).

Shared fields: host cell toxicity; cell line: MT-4; read-out: CC50

CCn: concentration that lowers growth or viability of the cells by n%. Conditions beyond the fields shown may differ between rows. Blank or dashed fields: not listed here.

compound,read by,result
Cc1cn([C@H]2C=C[C@@H](CO)O2)c(=O)[nH]c1=O,-,1.2 µM
Cc1c(O)cccc1C(=O)N[C@@H](CSc1ccccc1)[C@H](O)CN1C[C@H]2CCCC[C@H]2C[C@H]1C(=O)NC(C)(C)C,-,4.6 µg/mL
C[C@H](CC(=O)C[C@@H](C)[C@H]1C[C@H](O)[C@@]2(C)C3=C(C(=O)C[C@]12C)[C@@]1(C)CCC(=O)C(C)(C)[C@@H]1C[C@@H]3O)C(=O)O,-,>1000 µM
Nc1ncnc2c1ncn2CCOCP(=O)(O)O,MTT,67 µg/mL
Cc1cc(C)c(Oc2cc(Nc3ccc(C#N)cc3)ncc2C(=O)NCc2cn(CC(=O)N3CCOCC3)nn2)c(C)c1,MTT,180.9 µM
COC(=O)c1nn([C@@H]2CC[C@@H](CO)O2)cc1I,-,>300 µM
Cc1cc(N=Cc2ccc(O)cc2)ccc1N1C(=O)c2ccc(Cl)cc2C1=O,MTT / absorbance,0.534 µM
CC(C)c1nc(C(=O)NCc2ccc(F)cc2)c(O)c(=O)n1C,MTT,61 µM
O=c1c(O)c(-c2cc(O)c(O)c(O)c2)oc2cc(O)cc(O)c12,-,>100 µg/mL
CC(C)[C@H](NC(=O)N(C)Cc1ccccn1)C(=O)N[C@@H](Cc1ccccc1)[C@H](O)[C@@H](O)[C@H](Cc1ccccc1)NC(=O)[C@@H](NC(=O)N(C)Cc1ccccn1)C(C)C,-,>0.17 µM
COC(=O)NCCCN1c2ccccc2Sc2ccc(Cl)cc21,-,>500 µg/mL
CC(=S)Nc1ccc(N2C(=O)c3ccc(Cl)cc3C2=O)c(C)c1,MTT / absorbance,0.164 µM
CCc1nc(SCC(N)=O)n(COCc2ccccc2)c1Cc1cc(C)cc(C)c1,MTT,37.56 µM
Nc1ncnc2c1ncn2C=C1CC1CO,-,79.8 µM
CCc1[nH]c(=S)[nH]c1Cc1cc(C)cc(C)c1,MTT,>100 µM
Cc1cn([C@@H]2CC[C@H](CO)C2)c(=O)[nH]c1=O,MTT,>400 µg/mL
Cc1cn([C@H]2C[C@H](N=[N+]=[N-])[C@@H](CO)O2)c(=O)[nH]c1=O,-,26.5 µM
Cc1cc(C)cc(Sc2c(C(C)C)c(=O)[nH]c(=S)n2COCCO)c1,-,52 µM
Cc1cn([C@H]2C[C@H](N=[N+]=[N-])[C@@H](CO)O2)c(=O)[nH]c1=O,-,>6.43 µM
CC1(C)C=Cc2c(cc(O)c3c(=O)c4c(oc23)-c2ccc(O)cc2OC(C(C)(C)O)C4)O1,-,12 µg/mL
COc1ccc(C=Nc2ccc(N3C(=O)c4ccc(Cl)cc4C3=O)c(C)c2)cc1,MTT / absorbance,0.309 µM
O=S(=O)(O)OCC1OC(O)C(OS(=O)(=O)O)C(OS(=O)(=O)O)C1OC1OC(COS(=O)(=O)O)C(OC2OC(COS(=O)(=O)O)C(OC3OC(COS(=O)(=O)O)C(OC4OC(COS(=O)(=O)O)C(OS(=O)(=O)O)C(OS(=O)(=O)O)C4OS(=O)(=O)O)C(OS(=O)(=O)O)C3OS(=O)(=O)O)C(OS(=O)(=O)O)C2OS(=O)(=O)O)C(OS(=O)(=O)O)C1OS(=O)(=O)O,-,>1000 µg/mL
CN1c2ccccc2Sc2ccccc21,-,11 µg/mL
Nc1ccn([C@H]2CC[C@@H](CO)O2)c(=O)n1,MTT,>95 µM
COC(=O)c1nn([C@H]2CC[C@@H](CO)O2)cc1I,-,>300 µM
Cc1cn([C@H]2C[C@H](N=[N+]=[N-])[C@@H](CO)O2)c(=O)[nH]c1=O,MTT,10 µg/mL
CC(C)c1nc(SCC(N)=O)n(Cc2ccncc2)c1CC1CCCCC1,MTT,>100 µM
Cc1ccc(C(=O)Nc2ccc(S(=O)(=O)O)c3cc(S(=O)(=O)O)cc(S(=O)(=O)O)c23)cc1NC(=O)c1cccc(NC(=O)Nc2cccc(C(=O)Nc3cc(C(=O)Nc4ccc(S(=O)(=O)O)c5cc(S(=O)(=O)O)cc(S(=O)(=O)O)c45)ccc3C)c2)c1,-,625 µM
CCc1c(C(c2ccccc2)c2ccccc2)nc(SCC(=O)c2ccc(OC)cc2)[nH]c1=O,MTT,>366 µM
C[C@H](CC(=O)C[C@@H](C)[C@H]1CC(=O)[C@@]2(C)C3=C(C(=O)C[C@]12C)[C@@]1(C)CC[C@H](O)C(C)(C)[C@@H]1C[C@@H]3O)C(=O)O,-,>1000 µM
Cc1cc(C#N)cc(C)c1Oc1nc(Nc2ccc(C#N)cc2)nc(N)c1Br,MTT,2.18 µM
O=C([O-])c1c[nH]c2ccc(Cc3ccccc3)cc2c1=O.O=C([O-])c1c[nH]c2ccc(Cc3ccccc3)cc2c1=O.[Mg+2],MTT,17 µM
c1cc(CN2CCCNCCNCCCNCC2)ccc1CN1CCCNCCNCCCNCC1,MTT,18 µM
CC/C(C)=C/Cc1c(O)cc2oc(-c3ccc(O)c(O)c3)cc(=O)c2c1O,-,55 µg/mL
Cc1cc(C)cc(CC(N)C(=O)C(C)C)c1,MTT,>100 µM
CC(=O)NCCCN1c2ccccc2Sc2ccc(Cl)cc21,-,402.5 µg/mL
c1ncc(CN2CCCNCCNCCCNCC2)cc1CN1CCCNCCNCCCNCC1,-,>500 µg/mL
CC(C)c1nc(C(=O)NCc2ccc(F)cc2)c([O-])c(=O)n1C.CC(C)c1nc(C(=O)NCc2ccc(F)cc2)c([O-])c(=O)n1C.[Mg+2],MTT,41 µM
c1ccc2c(c1)Nc1ccccc1S2,-,264 µg/mL
Cc1ccnc2c1NC(=O)c1cccnc1N2C1CC1,MTT,>15 µM
C=C(C)[C@]12C[C@@H](C)[C@@]34OC5(CCCCCCC[C@H](C)[C@H]6[C@H](C)[C@H](O)[C@@](O)([C@H](O)[C@@]7(COC(=O)c8ccccc8)O[C@H]7[C@H]3[C@H]1O5)[C@@H]64)O2,luminescence,>0.03 µM
CC(C)(C)NC(=O)[C@@H]1C[C@@H]2CCCC[C@@H]2CN1C[C@@H](O)[C@H](Cc1ccccc1)NC(=O)[C@H](CC(N)=O)NC(=O)c1ccc2ccccc2n1,-,85 µg/mL
C[C@H](CCC=C(CO)CO)[C@H]1C[C@H](O)[C@@]2(C)C3=CC[C@H]4C(C)(C)C(=O)CC[C@]4(C)C3=CC[C@]12C,-,500 µM
Cc1cn([C@H]2C[C@H](N=[N+]=[N-])[C@@H](COP(=O)(OCCSC(=O)C(C)(C)C)OCCSC(=O)C(C)(C)C)O2)c(=O)[nH]c1=O,-,>10 µM
Cc1cc(NS(=O)(=O)c2ccc([N+](=O)[O-])cc2)ccc1N1C(=O)c2ccc(Cl)cc2C1=O,MTT / absorbance,0.2 µM
COc1c(CC=C(C)C)c(O)cc2oc(=O)c(-c3ccc(O)cc3O)cc12,-,13 µg/mL
c1cc(CN2CCCNCCNCCCNCC2)nc(CN2CCCNCCNCCCNCC2)c1,-,>500 µg/mL
NC(=O)c1nn([C@H]2CC[C@@H](CO)O2)cc1I,-,>300 µM
O=c1[nH]cc([C@H]2C[C@H](O)[C@H](CO)[NH2+]2)c(=O)[nH]1,MTT,>20 µM
CCOCn1c(SCC(N)=O)nc(C(C)C)c1Cc1cc(C)cc(C)c1,MTT,>100 µM
CC(C)Nc1cccnc1N1CCN(C(=O)c2cc3cc(NS(C)(=O)=O)ccc3[nH]2)CC1,-,21 µg/mL
C[C@H](CC[C@H](O)C(C)(O)CO)[C@H]1CC[C@@]2(C)C3=CCC4C(C)(C)[C@@H](O)CC[C@]4(C)C3=CC[C@]12C,-,>1000 µM
Cc1cc(C)cc(Cc2c(C(C)C)nc(SCC(N)=O)n2COCc2ccccc2)c1,MTT,29.43 µM
CC(C)[C@H](NC(=O)N(C)Cc1ccccn1)C(=O)N[C@@H](Cc1ccccc1)[C@H](O)[C@H](O)[C@H](Cc1ccccc1)NC(=O)[C@@H](NC(=O)N(C)Cc1ccccn1)C(C)C,-,>0.2 µM
CC(C)c1nc(SCC(N)=O)n(COCc2ccccc2)c1CC1CCCCC1,MTT,84.32 µM
Cc1cc(N=Cc2ccc(Cl)cc2)ccc1N1C(=O)c2ccc(Cl)cc2C1=O,MTT / absorbance,0.327 µM
Nc1ncnc2c1ncn2C=C=CCO,-,>200 µM
Cc1cc(NS(=O)(=O)c2ccc(Cl)cc2)ccc1N1C(=O)c2ccc(Cl)cc2C1=O,MTT / absorbance,0.22 µM
CCOCn1c(Cc2ccccc2)c(C(C)C)c(=O)[nH]c1=O,MTT,>100 µM
O=S(=O)(O)OCC1OC(OC2C(COS(=O)(=O)O)OC(O)C(O)C2OS(=O)(=O)O)C(OS(=O)(=O)O)C(O)C1OC1OC(COS(=O)(=O)O)C(OC2OC(COS(=O)(=O)O)C(OC3OC(COS(=O)(=O)O)C(OC4OC(COS(=O)(=O)O)C(OS(=O)(=O)O)C(OS(=O)(=O)O)C4O)C(OS(=O)(=O)O)C3O)C(O)C2OS(=O)(=O)O)C(OS(=O)(=O)O)C1O,-,>1000 µg/mL
Cc1cc(N=Cc2ccccc2)ccc1N1C(=O)c2ccc(Cl)cc2C1=O,MTT / absorbance,0.317 µM